In PMC8046379, “Fragment binding to the Nsp3 macrodomain of SARS-CoV-2 identified through crystallographic screening and computational docking” (Science Advances, 2021):

Biological target: SARS-CoV-2 Nsp3 Mac1 (Severe acute respiratory syndrome coronavirus 2, UniProt P0DTD1)
Conditions: read-out: Peptide displacement IC50

adenosine diphosphate ribose [ADP-ribose, reference compound]
IC50: 161 nM
